# Mutational interference map of HIV-1 RNA dimerization

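Mutant RNA libraries with 1G, 2G or 3G starts, with or without cap, were folded at 37 °C for 30 min. Monomer and dimer bands were cut from native gels after folding in high salt (300 mM KCl, 5 mM MgCl2) or low salt (40 mM KCl, 0.1 mM MgCl2). Kdimer compares mutation frequencies in monomer and dimer, corrected for sequencing errors.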

The 5' region of HIV-1 NL4-3 RNA (positions 1-437):
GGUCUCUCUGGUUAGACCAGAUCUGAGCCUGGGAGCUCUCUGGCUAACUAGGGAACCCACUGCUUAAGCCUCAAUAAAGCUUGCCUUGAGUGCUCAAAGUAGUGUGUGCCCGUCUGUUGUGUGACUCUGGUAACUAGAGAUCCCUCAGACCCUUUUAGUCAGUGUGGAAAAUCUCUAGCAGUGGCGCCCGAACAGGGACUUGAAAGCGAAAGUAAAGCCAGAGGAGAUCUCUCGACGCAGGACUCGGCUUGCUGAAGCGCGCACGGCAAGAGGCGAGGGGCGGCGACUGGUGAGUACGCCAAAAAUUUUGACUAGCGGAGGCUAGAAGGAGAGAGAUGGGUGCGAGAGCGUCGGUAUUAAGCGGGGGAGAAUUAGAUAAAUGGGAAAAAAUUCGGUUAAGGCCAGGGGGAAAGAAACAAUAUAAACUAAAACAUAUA

Scale: median log2 Kdimer over the changes at a position; positive = changes inhibit dimerization, negative = changes enhance it. One numbering serves 1G, 2G and 3G. A position is written with its base.

For G83 the result was 3G uncapped high-salt -0.06; 3G capped low-salt -0.20. With C84 the assay gave 3G uncapped high-salt -0.06; 3G capped low-salt -0.41. For C85 the result was 3G uncapped high-salt -0.40; 3G capped low-salt -0.39. For U86 the result was 3G uncapped high-salt 0.19; 3G capped low-salt -0.01. For U87 the result was 3G uncapped high-salt 0.09; 3G capped low-salt -0.19.

For G88 the result was 3G uncapped high-salt 0.37; 3G capped low-salt -0.28. With A89 the assay gave 3G uncapped high-salt 0.28; 3G capped low-salt 0.23. G90 read 3G uncapped high-salt 0.01; 3G capped low-salt -0.56. With U91 the assay gave 3G uncapped high-salt -0.05; 3G capped low-salt -0.30. With G92 the assay gave 3G uncapped high-salt 0.47; 3G capped low-salt 0.51.

With C93 the assay gave 3G uncapped high-salt 0.27; 3G capped low-salt -0.25. U94 gave 3G uncapped high-salt 0.06; 3G capped low-salt 0.07. For C95 the result was 3G uncapped high-salt -0.07; 3G capped low-salt 0.50. A96 gave 3G uncapped high-salt 0.10; 3G capped low-salt 0.01. With A97 the assay gave 3G uncapped high-salt 0.22; 3G capped low-salt 0.01.

A98 read 3G uncapped high-salt -0.12; 3G capped low-salt -0.13. For G99 the result was 3G uncapped high-salt 0.03; 3G capped low-salt -0.21. U100 gave 3G uncapped high-salt -0.04; 3G capped low-salt 0.21. A101 gave 3G uncapped high-salt 0.57; 3G capped low-salt 0.13. With G102 the assay gave 3G uncapped high-salt 0.05; 3G capped low-salt -0.23.

With U103 the assay gave 3G uncapped high-salt 0.08; 3G capped low-salt 0.27. G104 gave 3G uncapped high-salt 0.31; 3G capped low-salt -0.24. With U105 the assay gave 3G uncapped high-salt 0.00; 3G capped low-salt 0.00. G106 gave 3G uncapped high-salt -0.18; 3G capped low-salt 0.36. U107 read 3G uncapped high-salt 0.02; 3G capped low-salt 0.78.

G108 gave 3G uncapped high-salt -0.02; 3G capped low-salt -0.36. For C109 the result was 3G uncapped high-salt -0.21; 3G capped low-salt 1.04. For C110 the result was 3G uncapped high-salt 0.49; 3G capped low-salt 1.22. C111 read 3G uncapped high-salt -0.10; 3G capped low-salt 1.26. With G112 the assay gave 3G uncapped high-salt 0.03; 3G capped low-salt 0.62.

U113 read 3G uncapped high-salt -0.07; 3G capped low-salt 0.59. With C114 the assay gave 3G uncapped high-salt 0.01; 3G capped low-salt 0.53. With U115 the assay gave 3G uncapped high-salt -0.02; 3G capped low-salt 0.54. With G116 the assay gave 3G uncapped high-salt 0.40; 3G capped low-salt -0.33. U117 read 3G uncapped high-salt 0.00; 3G capped low-salt -0.17.

U118 gave 3G uncapped high-salt 0.08; 3G capped low-salt -0.01. For G119 the result was 3G uncapped high-salt -0.10; 3G capped low-salt -0.46. U120 read 3G uncapped high-salt 0.06; 3G capped low-salt 0.76. With G121 the assay gave 3G uncapped high-salt -0.11; 3G capped low-salt -0.72. U122 read 3G uncapped high-salt 0.13; 3G capped low-salt 0.88.

G123 read 3G uncapped high-salt 0.11; 3G capped low-salt -0.14.

The opening 5 entries, copied out:

With G83 the assay gave 3G uncapped high-salt -0.06; 3G capped low-salt -0.20.
With C84 the assay gave 3G uncapped high-salt -0.06; 3G capped low-salt -0.41.
With C85 the assay gave 3G uncapped high-salt -0.40; 3G capped low-salt -0.39.
With U86 the assay gave 3G uncapped high-salt 0.19; 3G capped low-salt -0.01.
With U87 the assay gave 3G uncapped high-salt 0.09; 3G capped low-salt -0.19.

Data from the supplement of Ye et al. 2022, doi:10.1038/s41594-022-00746-2.